Experimental data reported in publication PMC9770395 (PLOS Neglected Tropical Diseases, 2022).

System: net baseline intestinal fluid transport
Conditions: mouse, in vivo

For CC[C@H](C)C(=O)O[C@H]1C[C@@H](C)C=C2C=C[C@H](C)[C@H](CC[C@@H]3CC=CC(=O)O3)[C@H]21 [DHLV, α,β-dehydrolovastatin], the “Effect on net baseline fluid transport (fluid absorption at 30 min)” value was “unaffected”.
